Anti-infective test results gathered from many reports (values: NIAID ChemDB through PubChem).

Shared fields: whole-cell or culture tests; agent: Mycobacterium avium complex; endpoint: MIC

Neighbouring rows are from separate reports.

compound,strain or isolate,value
CCCCCCCCCCCCO/N=C1\[C@H](C)CC(C)(O)[C@H](O[C@@H]2O[C@H](C)C[C@H](N(C)C)[C@H]2O)[C@@H](C)[C@H](OC2C[C@@](C)(OC)[C@@H](O)[C@H](C)O2)[C@@H](C)C(=O)O[C@H](CC)[C@@](C)(O)[C@H](O)[C@H]1C,20096,25 µg/mL
CN[C@@H]1[C@H](O[C@H]2[C@H](O[C@H]3[C@H](O)[C@@H](O)[C@H](N=C(N)N)[C@@H](O)[C@@H]3N=C(N)N)O[C@@H](C)[C@]2(O)C=O)O[C@@H](CO)[C@H](O)[C@H]1O,N-289 (HIV-),16 µg/mL
CC1(C)N=C(N)N=C(N)N1OCCCOc1cc(Cl)c(Cl)cc1Cl,DW23,2 µg/mL
CO[C@H]1/C=C/O[C@@]2(C)Oc3c(C)c(O)c4c(=O)c(c5oc6cc(N7CCN(CC(C)C)CC7)cc(=O)c6nc5c4c3=C2O)NC(=O)/C(C)=C\C=C\[C@H](C)[C@H](O)[C@@H](C)[C@@H](O)[C@@H](C)[C@H](OC(C)=O)[C@@H]1C,N-961 (HIV+),0.05 µg/mL
CC[C@H]1OC(=O)[C@H](C)[C@@H](OC2C[C@@](C)(OC)[C@@H](O)[C@H](C)O2)[C@H](C)[C@@H](O[C@@H]2O[C@H](C)C[C@H](N(C)C)[C@H]2O)C(C)(O)C[C@@H](C)/C(=N\OCCc2cccs2)[C@H](C)[C@@H](O)[C@]1(C)O,20092,50 µg/mL
CC(C)N=C(N)/N=C(\N)Nc1ccc(Cl)cc1,101,>128 µg/mL
CC[C@H]1OC(=O)[C@H](C)[C@@H](O[C@H]2C[C@@](C)(OC)[C@@H](O)[C@H](C)O2)[C@H](C)[C@@H](O[C@@H]2O[C@H](C)C[C@H](N(C)C)[C@H]2O)[C@](C)(OC)C[C@@H](C)C(=O)[C@H](C)[C@@H](O)[C@]1(C)O,20039,0.78 µg/mL
C[C@@H]1CN(c2c(F)c(N)c3c(=O)c(C(=O)O)cn(C4CC4)c3c2F)C[C@H](C)N1,N-251 (HIV-),4 µg/mL
CO[C@H]1/C=C/O[C@@]2(C)Oc3c(C)c(O)c4c(O)c(c5c(c4c3C2=O)NC2(CCN(CC(C)C)CC2)N=5)=NC(=O)/C(C)=C\C=C\[C@H](C)[C@H](O)[C@@H](C)[C@@H](O)[C@@H](C)[C@H](OC(C)=O)[C@@H]1C,CIPT 140310003 (rough),0.25 µg/mL
CC[C@H]1OC(=O)[C@H](C)[C@@H](OC2C[C@@](C)(OC)[C@@H](O)[C@H](C)O2)[C@H](C)[C@@H](O[C@@H]2O[C@H](C)C[C@H](N(C)C)[C@H]2O)C(C)(O)C[C@@H](C)/C(=N\OCCSc2ccccc2)[C@H](C)[C@@H](O)[C@]1(C)O,20096,12.5 µg/mL
CN[C@@H]1[C@H](O[C@H]2[C@H](O[C@H]3[C@H](O)[C@@H](O)[C@H](N=C(N)N)[C@@H](O)[C@@H]3N=C(N)N)O[C@@H](C)[C@]2(O)C=O)O[C@@H](CO)[C@H](O)[C@H]1O,CIPT 140310006,>50 µg/mL
C#CCNC(=O)O[C@H]1C(O[C@@H]2[C@@H](C)[C@H](O[C@H]3C[C@@](C)(OC)[C@@H](OC(C)=O)[C@H](C)O3)[C@@H](C)C(=O)O[C@H](CC)[C@@](C)(O)[C@H](O)[C@@H](C)/C(=N/OCCCC3CCCCC3)[C@H](C)CC2(C)O)O[C@H](C)C[C@@H]1N(C)C,20034,0.2 µg/mL
CC[C@H]1OC(=O)[C@H](C)[C@@H](OC2C[C@@](C)(OC)[C@@H](O)[C@H](C)O2)[C@H](C)[C@@H](O[C@@H]2O[C@H](C)C[C@H](N(C)C)[C@H]2O)C(C)(O)C[C@@H](C)/C(=N\OCCCCCc2ccccc2)[C@H](C)[C@@H](O)[C@]1(C)O,20092,6.25 µg/mL
CCCCCCCCNC(=O)O[C@H]1C(O[C@@H]2[C@@H](C)[C@H](O[C@H]3C[C@@](C)(OC)[C@@H](OC(C)=O)[C@H](C)O3)[C@@H](C)C(=O)O[C@H](CC)[C@@](C)(O)[C@H](O)[C@@H](C)/C(=N/OCCCC3CCCCC3)[C@H](C)CC2(C)O)O[C@H](C)C[C@@H]1N(C)C,20045,0.39 µg/mL
CC[C@H]1OC(=O)[C@H](C)[C@@H](OC2C[C@@](C)(OC)[C@@H](O)[C@H](C)O2)[C@H](C)[C@@H](O[C@@H]2O[C@H](C)C[C@H](N(C)C)[C@H]2O)C(C)(O)C[C@@H](C)/C(=N\OCCC2CCCCC2)[C@H](C)[C@@H](O)[C@]1(C)O,20092,>50 µg/mL
Nc1ccc(S(=O)(=O)c2ccc(N)cc2)cc1,101,16 µg/mL
CC1(C)S[C@@H]2[C@H](NC(=O)C(C(=O)O)c3ccccc3)C(=O)N2[C@H]1C(=O)O,CIPT 140310003 (smooth),50 µg/mL
CCNC(=O)O[C@H]1C(O[C@@H]2[C@@H](C)[C@H](O[C@H]3C[C@@](C)(OC)[C@@H](OC(C)=O)[C@H](C)O3)[C@@H](C)C(=O)O[C@H](CC)[C@@](C)(O)[C@H](O)[C@@H](C)/C(=N/OCCCC3CCCCC3)[C@H](C)CC2(C)O)O[C@H](C)C[C@@H]1N(C)C,20045,12.5 µg/mL
CC[C@H]1OC(=O)[C@H](C)[C@@H](OC2C[C@@](C)(OC)[C@@H](O)[C@H](C)O2)[C@H](C)[C@@H](O[C@@H]2O[C@H](C)C[C@H](N(C)C)[C@H]2O)C(C)(O)C[C@@H](C)/C(=N\OCCCCc2ccccc2)[C@H](C)[C@@H](O)[C@]1(C)O,20096,3.13 µg/mL
CC1(C)N=C(N)N=C(N)N1OCCCOc1cc(Cl)c(Cl)cc1Cl,GRE,2 µg/mL
NC[C@H]1O[C@H](O[C@H]2[C@H](O)[C@@H](O[C@H]3O[C@H](CO)[C@@H](O)[C@H](N)[C@H]3O)[C@H](N)C[C@@H]2N)[C@H](O)[C@@H](O)[C@@H]1O,CIPT 140310005,5 µg/mL
CC[C@H]1OC(=O)[C@H](C)[C@@H](O[C@H]2C[C@@](C)(OC)[C@@H](OC(C)=O)[C@H](C)O2)[C@H](C)[C@@H](OC2O[C@H](C)C[C@H](N(C)C)[C@H]2OC(=O)NC)C(C)(O)C[C@@H](C)/C(=N\OCCCC2CCCCC2)[C@H](C)[C@@H](O)[C@]1(C)O,20092,50 µg/mL
CO[C@H]1/C=C/O[C@@]2(C)Oc3c(C)c(O)c4c(O)c(c(/C=N/N5CCN(C6CCCC6)CC5)c(O)c4c3C2=O)NC(=O)/C(C)=C\C=C\[C@H](C)[C@H](O)[C@@H](C)[C@@H](O)[C@@H](C)[C@H](OC(C)=O)[C@@H]1C,T,0.25 µg/mL
CC/C=C/CCNC(=O)O[C@H]1C(O[C@@H]2[C@@H](C)[C@H](O[C@H]3C[C@@](C)(OC)[C@@H](OC(C)=O)[C@H](C)O3)[C@@H](C)C(=O)O[C@H](CC)[C@@](C)(O)[C@H](O)[C@@H](C)/C(=N/OCCCC3CCCCC3)[C@H](C)CC2(C)O)O[C@H](C)C[C@@H]1N(C)C,20096,0.2 µg/mL
CC[C@H]1OC(=O)[C@H](C)[C@@H](OC2C[C@@](C)(OC)[C@@H](O)[C@H](C)O2)[C@H](C)[C@@H](O[C@@H]2O[C@H](C)C[C@H](N(C)C)[C@H]2O)C(C)(OC)C[C@@H](C)/C(=N\OCCCOc2ccccc2)[C@H](C)[C@@H](O)[C@]1(C)O,20096,6.25 µg/mL

A second listing of 2 rows from above:

compound	strain or isolate	value
C#CCNC(=O)O[C@H]1C(O[C@@H]2[C@@H](C)[C@H](O[C@H]3C[C@@](C)(OC)[C@@H](OC(C)=O)[C@H](C)O3)[C@@H](C)C(=O)O[C@H](CC)[C@@](C)(O)[C@H](O)[C@@H](C)/C(=N/OCCCC3CCCCC3)[C@H](C)CC2(C)O)O[C@H](C)C[C@@H]1N(C)C	20034	0.2 µg/mL
CC[C@H]1OC(=O)[C@H](C)[C@@H](OC2C[C@@](C)(OC)[C@@H](O)[C@H](C)O2)[C@H](C)[C@@H](O[C@@H]2O[C@H](C)C[C@H](N(C)C)[C@H]2O)C(C)(O)C[C@@H](C)/C(=N\OCCc2cccs2)[C@H](C)[C@@H](O)[C@]1(C)O	20092	50 µg/mL